A mixed list of measured activities; the numbers were collected in NIAID ChemDB.

Common to all: growth or infection tests; agent: Human cytomegalovirus; measure: EC50

Rows are shuffled and stem from different studies. Blank or dashed fields: not listed here. ECn: concentration that inhibits the pathogen or its effect by n%.

SMILES	cell line	method	strain or isolate	value
Nc1nc2c(ncn2COC(CO)CO)c(=O)[nH]1	MRC-5	plaque count	P8 ganciclovir-sensitive	2.5 µg/mL
O=C(NCc1ccc(Cl)cc1)c1c[nH]c2ccc(CCCO)cc2c1=O	-	plaque count	AD169	0.8 µM
Nc1nc2c(ncn2COC(CO)CO)c(=O)[nH]1	HFF	virus yield	AD169	<1.2 µM
CC(C)Nc1nc2cc(Cl)c(Cl)cc2n1[C@H]1O[C@@H](CO)[C@H](O)[C@@H]1O	MRC-5	hybridisation	C8912	0.04 µM
CCCCCCCCCCCCCCCCCCOCCOP(=O)(O)CO[C@H](CO)Cn1ccc(N)nc1=O	MRC-5	plaque count	WILD TYPE	0.00096 µM
CC(C)Nc1nc2cc(Cl)c(Cl)cc2n1[C@H]1O[C@@H](CO)[C@H](O)[C@@H]1O	HFF	virus yield	2916R (1263W94-resistant)	<0.3 µM
Nc1ccn(C[C@H]2COP(=O)(O)CO2)c(=O)n1	HEL	flow cytometry	AD169	1.29 µM
Nc1nc2c(ncn2C[C@@H]2CC[C@@H](P(=O)(O)O)O2)c(=O)[nH]1	MRC-5	plaque count	AD169	0.11 µg/mL
Nc1ncnc2c1ncn2C[C@H]1COP(=O)(O)CO1	HEL	flow cytometry	AD169	1.78 µM
COc1cccc(N2CCN(C3=Nc4c(F)cccc4[C@H](CC(=O)O)N3c3cc(C(F)(F)F)ccc3OC)CC2)c1	-	plaque count	rGCV-2	0.0016 µM
Nc1nc2c(ncn2COC(CO)CO)c(=O)[nH]1	MRC-5	ELISA	Isolate 731 UL54 S655L N685S	6.7 µM
Nc1nc2c(ncn2COC(CO)CO)c(=O)[nH]1	-	virus yield	D10 (D341E)	<3.4 µM
Nc1ccn(C[C@H]2COP(=O)(O)CO2)c(=O)n1	MRC-5	plaque count	DAVIS	0.45 µM
Nc1ncnc2c1ncn2C[C@@H](CO)OCP(=O)(O)O	HEL	flow cytometry	AD169	0.37 µM
Nc1ncnc2c1ncn2C=C1CC1CO	-	plaque count	VR4990 (ganciclovir-resistant)	3.9 µM
Nc1nc2c(ncn2COC(CO)CO)c(=O)[nH]1	MRC-5	hybridisation	9219REC7 (LEU595DEL)	1.8 µM
CCCCCCCCCCCCCCCCCCOCCOP1(=O)CO[C@@H](Cn2ccc(N)nc2=O)CO1	MRC-5	plaque count	Coffman	0.002 µM

2 of the rows above, restated:

SMILES,cell line,method,strain or isolate,value
CC(C)Nc1nc2cc(Cl)c(Cl)cc2n1[C@H]1O[C@@H](CO)[C@H](O)[C@@H]1O,MRC-5,hybridisation,C8912,0.04 µM
CCCCCCCCCCCCCCCCCCOCCOP(=O)(O)CO[C@H](CO)Cn1ccc(N)nc1=O,MRC-5,plaque count,WILD TYPE,0.00096 µM